A mixed list of measured activities; the numbers were collected in NIAID ChemDB.

Common to all: whole-cell or culture tests; organism: Staphylococcus aureus

Rows are shuffled and stem from different studies. MIC50, MIC90 and the like: level of inhibition, or share of isolates inhibited.

| compound | read-out | strain | result |
|---|---|---|---|
| CCCCCCCCCCCC[N+](C)(C)COC(CCC)CCC | MBC | ATCC 6538 | 3.17 µM |
| Nc1cn(-c2ccc(N3C[C@H](COc4ccccn4)OC3=O)cc2F)cn1 | MIC | 122 (novobiocin-resistant) | 4 µg/mL |
| CC1CN(c2cc3c(cc2F)c(=O)c(C(=O)O)cn3C2CC2)CC(C)N1 | MIC | ATCC 6538P | 1.56 µg/mL |
| CC[C@H]1OC(=O)[C@H](C)C(=O)[C@H](C)[C@@H](O[C@@H]2O[C@H](C)C[C@H](N(C)C)[C@H]2O)[C@@]2(C)C[C@@H](C)C(=NC(C)=O)[C@H](C)C(OC/C(=N/OCc3ccccc3)CO2)[C@]1(C)O | MIC | 27660 (erythromycin-resistant) | 1 µg/mL |
| CCCCCCCCCCCC[N+](C)(C)COC(CC)CCCCC | MBC | ATCC 6538 | 25.5 µM |
| CN(C)CCNc1cc2c(cc1F)c(=O)c(C(=O)O)cn2C1CC1 | MIC | ATCC 5278 (methicillin-resistant) | >100 µg/mL |
| CCCCCCCC[N+](C)(C)COCCC(C)CCCC(C)C | MIC | ATCC33592 | 27.5 µM |
| CC[C@H]1OC(=O)[C@H](C)C(=O)[C@H](C)[C@@H](O[C@@H]2O[C@H](C)C[C@H](N(C)C)[C@H]2O)[C@@]2(C)C[C@@H](C)C(=NC(C)=O)[C@H](C)[C@@H](OC/C(=N\OCc3ccc4nc(N)sc4c3)CO2)[C@]1(C)O | MIC | 27660 (erythromycin-resistant) | <0.06 µg/mL |
| CCCCOCCCNc1cc2c(cc1F)c(=O)c(C(=O)O)cn2C1CC1 | MIC | ATCC 5278 (methicillin-resistant) | >100 µg/mL |
| CCCCCCCCCCCC[N+](C)(C)CSCCCCCCCC | MIC | ATCC 6538 | 12.1 µM |
| CC(C)(N)CNc1cc2c(cc1F)c(=O)c(C(=O)O)cn2C1CC1 | MIC | ATCC 6538P | 12.5 µg/mL |
| CNC(=O)N[C@@H]1CCN(c2ccc(N3C[C@H](CNc4ccon4)OC3=O)cc2F)C1 | MIC | 122 (novobiocin-resistant) | 0.5 µg/mL |
| Cc1c(NCCO)c(F)cc2c(=O)c(C(=O)O)cn(-c3cc(N)c(F)cc3F)c12 | MIC90 | 27 isolates (methicillin-resistant) | 0.03 µg/mL |
| COc1ccc(CNc2cc3c(cc2F)c(=O)c(C(=O)O)cn3C2CC2)cc1OC | MIC | ATCC 5278 (methicillin-resistant) | >100 µg/mL |
| CNc1c(F)cc2c(=O)c(C(=O)O)cn(-c3cc(N)c(F)cc3F)c2c1C | Mean MIC | 27 isolates (methicillin-resistant) | 0.009 µg/mL |
| CCCCCCCC[N+](C)(C)COC(C)CCC | MIC | ATCC 6538 | 0.03 µM |
| CC[C@H]1OC(=O)[C@H](C)C(=O)[C@H](C)[C@@H](O[C@@H]2O[C@H](C)C[C@H](N(C)C)[C@H]2O)[C@@]2(C)C[C@@H](C)C(=NC(C)=O)[C@H](C)C(OC/C(=N\OCC#Cc3cccc(N)n3)CO2)[C@]1(C)O | MIC | 27660 (erythromycin-resistant) | 0.13 µg/mL |
| O=C1O[C@@H](COc2ccon2)CN1c1ccc(-n2cccc2)cc1 | MIC | 122 (novobiocin-resistant) | 8 µg/mL |
| CCC(N)CCNc1cc2c(cc1F)c(=O)c(C(=O)O)cn2C1CC1 | MIC | ATCC 5278 (methicillin-resistant) | 3.12 µg/mL |
| Cc1c(NCCCO)c(F)cc2c(=O)c(C(=O)O)cn(-c3cc(N)c(F)cc3F)c12 | MIC | W200 (methicillin-resistant) | 0.03 µg/mL |
| C[C@@H](CO)Nc1cc2c(cc1F)c(=O)c(C(=O)O)cn2C1CC1 | MIC | ATCC 6538P | 6.25 µg/mL |
| CC[C@H]1OC(=O)[C@H](C)C(=O)[C@H](C)[C@@H](O[C@@H]2O[C@H](C)C[C@H](N(C)C)[C@H]2O)[C@@]2(C)C[C@@H](C)C(=NC(C)=O)[C@H](C)[C@@H](OC/C(=N\Oc3ccc(-c4nccs4)nc3)CO2)[C@]1(C)O | MIC | 33591 (erythromycin methicillin-resistant) | 64 µg/mL |
| O=C1O[C@@H](CNc2ccon2)CN1c1ccc(N2CCOCC2)c(F)c1 | MIC | 122 (novobiocin-resistant) | 1 µg/mL |

2 of the rows above, restated:

compound,read-out,strain,result
CN(C)CCNc1cc2c(cc1F)c(=O)c(C(=O)O)cn2C1CC1,MIC,ATCC 5278 (methicillin-resistant),>100 µg/mL
CCCCCCCC[N+](C)(C)COCCC(C)CCCC(C)C,MIC,ATCC33592,27.5 µM